Pooled drug test results. Numbers come from NIAID ChemDB, via PubChem.

Shared fields: tests in culture; agent: HIV-1; measure: EC50

Lines come from different laboratories, so protocols vary. ECn is the concentration giving n% inhibition of infection, replication or growth. Blank or dashed fields: not listed here.

compound	strain	changes	cells	method	setting	value
Cc1ncc(-c2cnc(OCCOc3ccc(F)cc3Cl)c(F)c2)c(N2CCC(C)(C)CC2)c1[C@H](OC(C)(C)C)C(=O)O	NL4-3	-	MT-2	luminescence	-	0.0012 µM
CC(C)C1=C2[C@H]3CC[C@@H]4[C@@]5(C)CC[C@H](OC(=O)[C@H]6C[C@@H](C(=O)O)C6(C)C)C(C)(C)[C@@H]5CC[C@@]4(C)[C@]3(C)CC[C@@]2([C@@H](O)CNCc2ccc(N)nc2)CC1=O	92HT599	-	MT-2	p24 / ELISA	-	<1 µM
CCCc1cc(=O)oc2c3c(c4c(c12)OC(C)(C)CC4)O[C@@H](C)[C@H](C)[C@@H]3O	NL4-3	RT-Y188C	CEM + CEM-SS	cytopathic effect / XTT	-	1 µM
Cc1cn([C@H]2C[C@H](N=[N+]=[N-])[C@@H](CO)O2)c(=O)[nH]c1=O	-	-	1A2	syncytia	-	0.0023 µM
CCN1c2ncc(CCOc3ccc(S(=O)(=O)Nc4ccc(C(=O)O)cc4)cc3C)cc2C(=O)N(C)c2cccnc21	IIIB	-	C8166	p24	-	>0.05 µM
Cc1occc1C(=S)Nc1ccc(Cl)c(/C=N/OC(C)(C)C)c1	NL4-3	RT-V108I	CEM + CEM-SS	cytopathic effect / XTT	-	0.2 µM
COCCOc1cc(Cl)ccc1C(=O)NCC[C@@]12CC[C@]3(C)[C@H](CC[C@@H]4[C@@]5(C)CC[C@H](OC(=O)[C@H]6C[C@@H](C(=O)O)C6(C)C)C(C)(C)[C@@H]5CC[C@]43C)C1=C(C(C)C)C(=O)C2	92HT599	-	MT-2	p24 / ELISA	-	<1 µM
Cc1ccc(CNC(=O)c2nc3n(c(=O)c2O)C(C)CCCC3N(C)C(=O)C(=O)N(C)C)cc1F	-	N155H	HeLa P4-2	single cycle	-	0.001 µM
CCN1c2ncc(CCOc3ccc(C(=O)Nc4ccc(CC(=O)O)cc4)cc3C)cc2C(=O)N(C)c2cccnc21	IIIB	-	C8166	p24	-	<0.01 µM
Cc1cc(CNC(=O)c2nc3n(c(=O)c2O)[C@@H](C)COC[C@H]3N(C)C(=O)C(=O)N(C)C)ccc1F	-	Q148R	HeLa P4-2	single cycle	-	0.002 µM
CCN1c2ncc(CCOc3ccc(C(=O)Nc4ccc[n+]([O-])c4)cc3C)cc2C(=O)Nc2c(C)ccnc21	IIIB	-	C8166	p24	-	<0.01 µM
Cc1nnc(-c2cccc(-c3cccc(C(=O)N4CCCCC4)c3)c2)o1	BJOX2000	-	TZM-bl	luminescence	pseudotyped	>30 µM
CO[C@]1(C)CC[C@@H](N(C)C(=O)C(=O)N(C)C)c2nc(C(=O)NCc3ccc(F)c(C)c3)c(O)c(=O)n2C1	-	G140S/Q148H	HeLa P4-2	single cycle	-	0.01 µM
CC(=O)N[C@@H]1CCN(c2cc(Cl)nn3cc(C)nc23)C1	-	-	H9	p24	-	>100 µM
CCCN(CCCC[C@H](NC(C)=O)C(=O)NCc1ccccc1)C(=O)N(CCCl)N=O	IIIB	-	CEM-IW + CEM	cytopathic effect / XTT	-	>100 µM
C=CCO/N=C/c1cc(NC(=S)c2ccoc2C)ccc1Cl	NL4-3	RT-K103N	CEM + CEM-SS	cytopathic effect / XTT	-	6.8 µM
CC[C@@H]1COC[C@@H](N(C)C(=O)C(=O)N(C)C)c2nc(C(=O)NCc3ccc(F)cc3)c(O)c(=O)n21	-	Y143R	HeLa P4-2	single cycle	-	0.001 µM
COc1cc(-c2ccc(N=Nc3ccc4c(S(=O)(=O)O)cc(S(=O)(=O)O)c(N)c4c3O)c(OC)c2)ccc1N=Nc1ccc2c(S(=O)(=O)O)cc(S(=O)(=O)O)c(N)c2c1O	KELL	-	CEM + CEM-SS	RT activity	-	0.6 µM
CCCCSc1ncc(-c2cnc(C)c([C@H](OC(C)(C)C)C(=O)O)c2N2CCC(C)(C)CC2)cc1F	NL4-3	-	MT-2	luminescence	-	0.0042 µM
CCN1c2ncc(CCOc3ccc(NC(=O)CC4(C(=O)O)CCCC4)cc3C)cc2C(=O)N(C)c2cccnc21	IIIB	-	C8166	p24	-	<0.01 µM
CC(=O)N[C@@H](CCCCN(Cc1ccccc1)C(=O)NCCCl)C(=O)NCc1ccccc1	IIIB	-	CEM-IW + CEM	cytopathic effect / XTT	-	>100 µM
COc1cc2c(cc1Cc1cccc(Cl)c1F)c(=O)c(C(=O)O)cn2[C@H](CO)C(C)C	-	-	HOS	luciferase	-	<0.004 µM
CC(C)C1=C2[C@H]3CC[C@@H]4[C@@]5(C)CC[C@H](OC(=O)[C@H]6C[C@@H](C(=O)O)C6(C)C)C(C)(C)[C@@H]5CC[C@@]4(C)[C@]3(C)CC[C@@]2([C@@H](O)CNCCN2CCOCC2)CC1=O	92HT599	-	MT-2	p24 / ELISA	-	<1 µM
Cc1ccnc2c1NC(=O)c1cccnc1N2C1CC1	p8.9	N348I	HEK293T	luciferase	-	235 nM
Cc1cc(CNC(=O)c2nc3n(c(=O)c2O)[C@@H](C)COC[C@@H]3N(C)C(=O)C(=O)N(C)C)ccc1F	-	Q148R	HeLa P4-2	single cycle	-	0.003 µM
CCCCO[C@H](C(=O)O)c1c(C)ncc(-c2ccc(OCCOc3ccccc3Cl)cn2)c1N1CCC(C)(C)CC1	NL4-3	-	MT-2	luminescence	-	0.0079 µM
Nc1ccn([C@@H]2C=C(F)[C@H](CO)O2)c(=O)n1	LAI	-	PBMC	RT activity	-	<0.67 µM
CC[C@]1(CO)O[C@@H](n2cnc3c(N)ncnc32)C[C@@H]1O	-	SSGR+T215Y (delta)Env	HOS	luciferase	-	>0.7 µM
CC(C)C1=C2[C@H]3CC[C@@H]4[C@@]5(C)CC[C@H](OC(=O)[C@H]6C[C@@H](C(=O)O)C6(C)C)C(C)(C)[C@@H]5CC[C@@]4(C)[C@]3(C)CC[C@@]2(CCNC(C)(C)c2ccccc2)CC1=O	92HT599	-	MT-2	p24 / ELISA	-	<1 µM
C/C=C/CSc1cc(NC(=S)c2ccsc2C)ccc1Cl	NL4-3	RT-V108I	CEM + CEM-SS	p24	-	0.2 µM
CC(C)C1=C2[C@H]3CC[C@@H]4[C@@]5(C)CC[C@H](OC(=O)[C@H]6C[C@@H](C(=O)O)C6(C)C)C(C)(C)[C@@H]5CC[C@@]4(C)[C@]3(C)CC[C@@]2([C@@H](O)CNCC(C)(C)NC(=O)c2ccc(Cl)cc2OCCN2CCCC2)CC1=O	92HT599	-	MT-2	p24 / ELISA	-	<1 µM
Cc1cc(CNC(=O)c2nc3n(c(=O)c2O)CC(C)(C)CCC3N(C)C(=O)C(=O)N(C)C)ccc1F	-	G140S/Q148H	HeLa P4-2	single cycle	-	0.009 µM
C[C@H]1CO[C@@H]2Cn3cc(C(=O)NCc4ccc(F)cc4F)c(=O)c(O)c3C(=O)N12	-	+G insertion (GGGGAGT)	HOS	luciferase	-	<0.001 µM
CC(=O)COc1cc(NC(=S)OC(C)C)ccc1Cl	IIIB	-	CEM + CEM-SS	cytopathic effect / XTT	-	0.5 µM
[2H]C(CCCCN)(CNC(=O)c1ccc(Cl)cc1)NC(=O)C[C@@]12CC[C@]3(C)[C@H](CC[C@@H]4[C@@]5(C)CC[C@H](OC(=O)[C@H]6C[C@@H](C(=O)O)C6(C)C)C(C)(C)[C@@H]5CC[C@]43C)C1=C(C(C)C)C(=O)C2	92HT599	-	MT-2	p24 / ELISA	-	<1 µM
CCN1c2ncc(CCOc3ccc(-c4ccc(O)cc4)cc3C)cc2C(=O)N(C)c2cccnc21	-	RT-K103N Y181C	C8166	p24	-	<0.01 µM
CC(C)C1=C2[C@H]3CC[C@@H]4[C@@]5(C)CC[C@H](OC(=O)[C@H]6C[C@@H](C(=O)O)C6(C)C)C(C)(C)[C@@H]5CC[C@@]4(C)[C@]3(C)CC[C@@]2(CCNCC(C)(C)NC(=O)c2ccc(Cl)cc2OCCN2CCOCC2)CC1=O	92HT599	-	MT-2	p24 / ELISA	-	<1 µM
CC(=O)OCCCc1cnc2c(c1)c(N)c(C(=O)NCc1ccc(F)cc1F)c(=O)n2O	-	+G insertion (GGGGAGT)	HOS	luciferase	-	<0.001 µM
Cc1occc1C(=S)Nc1ccc(Cl)c(C(=O)OCC2CC2)c1	4xAZT(RT-D67N K70R T215Y K219Q)	RT-D67N K70R T215Y K219Q	CEM + CEM-SS	cytopathic effect / XTT	-	0.04 µM
COc1ccc(-c2c(C)nc3c(N4CC[C@@H](NS(=O)(=O)c5ccc(C)cc5)C4)cc(C)nn23)cc1OC	-	-	H9	p24	-	0.09 µM
CCC(=O)c1ccc(F)c([C@@H]2C[C@@H]2NC(=O)Nc2ccc(C#N)cn2)c1O	LAI	NNRTI-resistant (RT K103N/Y181C)	TZM-bl	β-galactosidase / luminescence	-	0.182 µM
C=CCN(N=O)C(=O)NCCCC[C@H](NC(C)=O)C(=O)NCc1ccccc1	IIIB	-	CEM-IW + CEM	cytopathic effect / XTT	-	>100 µM
COCCOCCOCCOc1ccc(-c2cnc(C)c([C@H](OC(C)(C)C)C(=O)O)c2N2CCC(C)(C)CC2)nc1	NL4-3	-	MT-2	luminescence	-	0.0566 µM
C=CC(C)(C)c1c2c(c(O)c3ccc(=O)oc13)C(=O)CC(C)(C)O2	-	-	1A2	syncytia	-	5.3 µM
COc1ccc(-c2c(C)nc3c(N4CCOCC4)cc(C)nn23)cc1OC	-	-	H9	p24	-	>1 µM
CCCc1cc(=O)oc2c3c(c4c(c12)OC(C)(C)CC4)O[C@H](C)[C@@H](C)C3=O	ADA	-	Macrophage + Macrophages	cytopathic effect / XTT	-	1.76 µM
CC=CCOc1cc(NC(=S)c2ccoc2C)ccc1OC	4xAZT/L100I(RT-D67N K70R T215Y K219Q L100I)	RT-D67N K70R L100I T215Y K219Q	CEM + CEM-SS	cytopathic effect / XTT	-	0.7 µM
Cc1ncc(-c2ccc(OCCc3ccccn3)nc2)c(N2CCC(C)(C)CC2)c1[C@H](OC(C)(C)C)C(=O)O	NL4-3	-	MT-2	luminescence	-	0.0009 µM
CC(C)C1=C2[C@H]3CC[C@@H]4[C@@]5(C)CC[C@H](OC(=O)[C@H]6C[C@@H](C(=O)O)C6(C)C)C(C)(C)[C@@H]5CC[C@@]4(C)[C@]3(C)CC[C@@]2([C@@H](O)CNCC(C)(C)NC(=O)c2ccc(Cl)cc2O[C@@H]2CCOC2)CC1=O	92HT599	-	MT-2	p24 / ELISA	-	<1 µM
Cc1ncc(-c2ccc(OCC3CCCCC3)cn2)c(N2CCC(C)(C)CC2)c1[C@H](OC(C)(C)C)C(=O)O	NL4-3	-	MT-2	luminescence	-	0.0016 µM
COc1ccc(-c2c(C)oc3c(N4CC[C@@H](NC(C)=O)C4)cc(C)nc23)cc1OC	-	-	H9	p24	-	>100 µM
CC[C@H]1COC[C@@H](N(C)C(=O)C(=O)N(C)C)c2nc(C(=O)NCc3ccc(F)cc3)c(O)c(=O)n21	-	Y143R	HeLa P4-2	single cycle	-	0.001 µM
Cc1cc(-c2ccc[n+]([O-])c2)ccc1OCCc1cnc2c(c1)C(=O)Nc1c(C)ccnc1N2C1CC1	IIIB	-	C8166	p24	-	<0.01 µM
CC(=O)N[C@@H]1CCN(c2cc(C)nn3c(-c4ccc(O)cc4)c(C)nc23)C1	-	-	H9	p24	-	<1 µM
CC(C)C1=C2[C@H]3CC[C@@H]4[C@@]5(C)CC[C@H](OC(=O)[C@H]6C[C@@H](C(=O)O)C6(C)C)C(C)(C)[C@@H]5CC[C@@]4(C)[C@]3(C)CC[C@@]2([C@@H](O)CNCC(C)(C)NC(=O)CN2CCCCC2)CC1=O	92HT599	-	MT-2	p24 / ELISA	-	<1 µM
C#CCN(N=O)C(=O)NCCC[C@H](NC(C)=O)C(=O)NCc1ccccc1	IIIB	-	CEM-IW + CEM	cytopathic effect / XTT	-	>100 µM
Cc1ccsc1C(=S)Nc1ccc(Cl)c(C(=O)OC(C(C)C)C(C)C)c1	RF	-	CEM + CEM-SS	cytopathic effect / XTT	-	0.159 µM
Nc1c(C(=O)NCc2ccc(F)cc2F)c(=O)n(O)c2ncc(CCCCCCO)cc12	-	+G insertion (GGGGAGT)	HOS	luciferase	-	<0.001 µM
C=CCN(N=O)C(=O)N(CCC)CCCC[C@H](NC(C)=O)C(=O)NCc1ccccc1	IIIB	-	CEM-IW + CEM	cytopathic effect / XTT	-	>100 µM
Cc1cc(Cl)ccc1OCCN(C)c1ccc(-c2cnc(C)c([C@H](OC(C)(C)C)C(=O)O)c2N2CCC(C)(C)CC2)nc1	NL4-3	-	MT-2	luminescence	-	0.0013 µM

A second listing of 7 rows from above:

compound | strain | changes | cells | method | setting | value
COc1ccc(-c2c(C)oc3c(N4CC[C@@H](NC(C)=O)C4)cc(C)nc23)cc1OC | - | - | H9 | p24 | - | >100 µM
CC=CCOc1cc(NC(=S)c2ccoc2C)ccc1OC | 4xAZT/L100I(RT-D67N K70R T215Y K219Q L100I) | RT-D67N K70R L100I T215Y K219Q | CEM + CEM-SS | cytopathic effect / XTT | - | 0.7 µM
CC[C@]1(CO)O[C@@H](n2cnc3c(N)ncnc32)C[C@@H]1O | - | SSGR+T215Y (delta)Env | HOS | luciferase | - | >0.7 µM
CC(C)C1=C2[C@H]3CC[C@@H]4[C@@]5(C)CC[C@H](OC(=O)[C@H]6C[C@@H](C(=O)O)C6(C)C)C(C)(C)[C@@H]5CC[C@@]4(C)[C@]3(C)CC[C@@]2(CCNCC(C)(C)NC(=O)c2ccc(Cl)cc2OCCN2CCOCC2)CC1=O | 92HT599 | - | MT-2 | p24 / ELISA | - | <1 µM
CC(C)C1=C2[C@H]3CC[C@@H]4[C@@]5(C)CC[C@H](OC(=O)[C@H]6C[C@@H](C(=O)O)C6(C)C)C(C)(C)[C@@H]5CC[C@@]4(C)[C@]3(C)CC[C@@]2([C@@H](O)CNCCN2CCOCC2)CC1=O | 92HT599 | - | MT-2 | p24 / ELISA | - | <1 µM
CCCc1cc(=O)oc2c3c(c4c(c12)OC(C)(C)CC4)O[C@H](C)[C@@H](C)C3=O | ADA | - | Macrophage + Macrophages | cytopathic effect / XTT | - | 1.76 µM
Cc1nnc(-c2cccc(-c3cccc(C(=O)N4CCCCC4)c3)c2)o1 | BJOX2000 | - | TZM-bl | luminescence | pseudotyped | >30 µM